Measurements taken from PubChem BioAssay AID493033 (ICCB-Longwood Screening Facility, Harvard Medical School, 2011).
This is a selection; strong and weak results do not stand in their true shares. Calls of active or inactive are those of the source. Cut-off read from the data, not from the text of the source: active = inhibition mostly above about 56% (no sharp cut-off); inactive = mostly below about 77%.

By UniProt entry, the sequences of proteins in these tests, tags left out.
UniProt P9WFX0, whole entry: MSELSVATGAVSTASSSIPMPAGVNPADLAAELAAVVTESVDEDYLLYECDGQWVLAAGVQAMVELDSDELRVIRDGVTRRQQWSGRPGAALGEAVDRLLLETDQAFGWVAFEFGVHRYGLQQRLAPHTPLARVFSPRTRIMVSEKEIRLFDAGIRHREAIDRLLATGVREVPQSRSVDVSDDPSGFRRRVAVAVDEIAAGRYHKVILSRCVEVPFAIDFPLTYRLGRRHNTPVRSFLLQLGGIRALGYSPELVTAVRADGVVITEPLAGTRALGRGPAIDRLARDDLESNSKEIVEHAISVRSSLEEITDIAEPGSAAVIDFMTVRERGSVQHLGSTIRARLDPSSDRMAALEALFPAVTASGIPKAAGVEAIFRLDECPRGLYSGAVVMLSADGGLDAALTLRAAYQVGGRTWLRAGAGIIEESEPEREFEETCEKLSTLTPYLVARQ

Biological target: Salicylate synthase (Mycobacterium tuberculosis (strain CDC 1551 / Oshkosh)) (UniProt P9WFX0)
Assay: inhibitors of M. tuberculosis MbtI – biochemical, fluorescence intensity, primary screen (AID 493033)
Conditions: purified MbtI enzyme, fluorescence intensity read-out; hits give high values; concentration not given here

SMILES	inhibition
NC(=O)C1(Nc2ccccc2)CCN(Cc2ccccc2)CC1	inactive: -7.85%
O=C1CCN(CCc2ccccc2)CC1	inactive: -6.9%
CN1CCC(Nc2ccc(F)cc2)CC1	inactive: -22.9%
O=C(NCC1(N2CCOCC2)CCCCC1)c1cc2ccccc2cc1O	inactive: -29.4%
CCCN1CCC(Nc2cc(OC)cc(OC)c2)CC1	inactive: 2.95%
Cc1c(C(=O)NCC2(N3CCOCC3)CCCCC2)oc2c(Cl)cccc12	inactive: -5.1%
CC1CN(Cc2ccccc2)CCC1=O (configuration not stated)	inactive: -2.35%
CCN1CCC(Nc2ccc(F)cc2)CC1	inactive: -18.5%
CC1CN(C)C(C)CC1Nc1ccccc1 (configuration not stated)	inactive: -13.4%
CN(C)c1ccc(C(=O)NCC2(N3CCCCC3)CCCCC2)cc1	inactive: 2.75%
CCOc1ncccc1C(=O)NCC1(N(C)C)CCCCC1	inactive: 4.5%
O=C(NCC1(N2CCCCC2)CCCCC1)c1n[nH]c2ccccc12	inactive: 165%
CCOc1ncccc1C(=O)NCC1(N2CCCCC2)CCCCC1	inactive: 16.1%
CCCN1CCC(Nc2ccc(OC)c(OC)c2)CC1	inactive: -15.2%
COc1ccc(C(=O)NCC2(N3CCCCC3)CCCCC2)cc1	inactive: -5.65%
N#CC1(Nc2ccccc2)CCN(Cc2ccccc2)CC1	inactive: 0.2%
Cc1cnc(C(=O)NCC2(N3CCCCC3)CCCCC2)cn1	inactive: -17.6%
O=C1CCN(Cc2ccccc2)CC1	inactive: 4.8%
O=C(NCC1(N2CCOCC2)CCCCC1)c1ccc2nc[nH]c2c1	inactive: -11.9%
CCOC(=O)N1CCC(Nc2ccc(F)cc2)CC1	inactive: -31.2%
CCOC(=O)N1CCC(Nc2cccc(C)c2)CC1	inactive: -19.9%
Cn1nc(C(=O)NCC2(N3CCCCC3)CCCCC2)c2ccccc2c1=O	inactive: -3.6%
CC(C)(C)OC(=O)N1CCC(Nc2ccc(OC(F)(F)F)cc2)CC1	inactive: 5.6%
FC(F)(F)Oc1ccc(NC2CCNCC2)cc1	inactive: 1.75%
NC(=O)C1(Nc2ccc(F)cc2)CCNCC1	inactive: -0.85%
c1ccc(CN2CCC(Nc3ccc4c(c3)OCO4)CC2)cc1	inactive: -132%
Cc1ccc(C(=O)NCC2(N(C)C)CCCCC2)o1	inactive: 0.9%
